Anti-infective test results gathered from many reports (values: NIAID ChemDB through PubChem).

Common to all: growth or infection tests; species: Herpes simplex virus 1; endpoint: EC50

Neighbouring rows are from separate reports. Blank or dashed fields: not listed here. ECn is the concentration giving n% inhibition of infection, replication or growth.

structure,strain or isolate,read by,cells,value
O=C1CCC(c2ccccc2)C(=O)N1CCCCN1CCN(c2ccc(F)cc2)CC1,,MTT,VERO 76,31 µM
O=c1[nH]c(=O)n([C@H]2C[C@H](O)[C@@H](CO)O2)c[c]1[Hg+],KOS,virus yield,KB,0.59 µg/mL
C[C@]12CCC3C(CC[C@H]4C[C@@H](O)CC[C@]34C)C1[C@H](O)CC2=O,,virus yield,VERO,225 µM
Nc1ncc2c(ncn2COC(CO)CO)n1,KOS HPMPC-resistant,cytopathic effect,HEL,0.26 µg/mL
COc1cc(C2c3cc4c(cc3C[C@H]3COC(=O)[C@H]23)OCO4)cc(OC)c1OC,ITOH,,MRC-5,0.004 µg/mL
CCCCC[C@H](O)/C=C/C1[C@H](O)CC(=O)[C@@H]1CCCCCCC(=O)O,KOS,cytopathic effect,HeLa,>4 µg/mL
NC(CS)C(=O)O.O=c1[nH]c(=O)n([C@H]2C[C@H](O)[C@@H](CO)O2)c[c]1[Hg+],KOS,virus yield,KB,0.899 µg/mL
CCC(=O)O[C@@H]1CC(=O)O[C@H](C)C/C=C/C=C/[C@H](O)[C@H](C)C[C@H](CC=O)[C@H](O[C@@H]2O[C@H](C)[C@@H](O[C@H]3C[C@@](C)(O)[C@@H](OC(=O)CC(C)C)[C@H](C)O3)[C@H](N(C)C)[C@H]2O)[C@H]1OC,KOS,cytopathic effect,HeLa,>200 µg/mL
C[C@]12CCC3C(CC[C@H]4C[C@@H](O)CC[C@]34C)C1C[C@@H](Br)C21OCCO1,,virus yield,VERO,472 µM
Nc1ncnc2c1ncn2CCOCP(=O)(O)O,KOS GCV-resistant,cytopathic effect,HEL,22.4 µg/mL
O=c1[nH]c(=O)n([C@H]2C[C@H](O)[C@@H](CO)O2)c[c]1[Hg+].O[C@H](C[S-])[C@H](O)CS,KOS,virus yield,KB,1.204 µg/mL
COc1cc([C@@H]2c3cc(O)c(O)cc3C[C@H]3COC(=O)[C@@H]32)cc(OC)c1OC,INOUE,,MRC-5,0.224 µg/mL
Nc1ncnc2c1ncn2[C@@H]1O[C@H](CO)C[C@@H]1O,KOS,cytopathic effect,U87MG,5.4 µg/mL
CC(=O)O[C@H]1CC[C@@]2(C)C(=CC[C@@H]3[C@@H]2CC[C@]2(C)C(=O)[C@H](OC(C)=O)C[C@@H]32)C1,,virus yield,VERO,59.2 µM
CN(CC(=O)O)NC(=O)CC(N)CC(O)CN,KOS,cytopathic effect,HeLa,>200 µg/mL
O=C(O)P(=O)(O)O,KOS,cytopathic effect,VERO,38 µg/mL
O=C1CCC(c2ccccc2)C(=O)N1CCCN1CCN(c2ccccc2O)CC1,,MTT,VERO 76,>100 µM
Nc1ncnc2c1ncn2[C@@H]1O[C@H](CO)[C@@H](O)[C@@H]1O,KOS PMEDAP-resistant,cytopathic effect,HEL,19.6 µg/mL
O=C1C=C([C@@H]2O[C@H](CO)[C@@H](O)[C@H]2O)C(=O)N1,KOS,cytopathic effect,HeLa,>200 µg/mL
O=C1CCC(c2ccccc2)C(=O)N1,,MTT,VERO 76,>98 µM
O=c1[nH]c(=O)n([C@H]2C[C@H](O)[C@@H](CO)O2)cc1/C=C/Br,KOS S2242-resistant,cytopathic effect,HEL,0.005 µg/mL
C=C(NC(=O)C(=C)NC(=O)c1csc(C2=NC3CC4(C2)NC(=O)C(C)NC(=O)C(=C)NC(=O)C(=C)NC(=O)C(C(C)C)NC2C=Cc5c(C(C)O)cc(nc5C2O)C(=O)OC(C)C(NC(=O)c2csc(n2)C(C(C)(O)C(C)O)NC(=O)C2CSC(=N2)/C(=C\C)NC(=O)C(C(C)O)NC(=O)c2csc4n2)c2nc3cs2)n1)C(N)=O,KOS,cytopathic effect,HeLa,>200 µg/mL
CC(=O)O[C@H]1CC[C@]2(C)C3CC[C@@]4(C)C(C[C@@H](Br)C45OCCO5)C3CC[C@H]2C1,,virus yield,VERO,42.4 µM
Nc1ncnc2c1ncn2C[C@@H](CO)OCP(=O)(O)O,KOS HPMPA-resistant,cytopathic effect,HEL,1.8 µg/mL
COc1cc([C@@H]2c3cc4c(cc3[C@H](O)[C@H]3COC(=O)[C@H]23)OCO4)cc(OC)c1OC,A4-3,,MRC-5,0.014 µg/mL
NC1C=CC(CC[C@H](N)C(=O)O)C=C1,KOS,cytopathic effect,HeLa,>200 µg/mL
C[C@]12CCC3C(CC[C@H]4C[C@@H](O)CC[C@]34C)C1[C@@H](O)CC2=O,,virus yield,VERO,118 µM
O=C1CCC(c2ccccc2)C(=O)N1CCCCN1CCN(Cc2ccccc2)CC1,,MTT,VERO 76,>96 µM
C[C@]12CCC3C(CC[C@H]4C[C@@H](O)CC[C@]34C)C1C=CC21OCCO1,,virus yield,VERO,268 µM
O=C(O)CP(=O)(O)O,KOS PFA-resistant,cytopathic effect,HEL,64.5 µg/mL

For reference, 3 entries again:

{"structure": "O=C1C=C([C@@H]2O[C@H](CO)[C@@H](O)[C@H]2O)C(=O)N1", "strain or isolate": "KOS", "read by": "cytopathic effect", "cells": "HeLa", "value": ">200 µg/mL"}
{"structure": "C[C@]12CCC3C(CC[C@H]4C[C@@H](O)CC[C@]34C)C1C[C@@H](Br)C21OCCO1", "read by": "virus yield", "cells": "VERO", "value": "472 µM"}
{"structure": "O=C1CCC(c2ccccc2)C(=O)N1CCCN1CCN(c2ccccc2O)CC1", "read by": "MTT", "cells": "VERO 76", "value": ">100 µM"}